Data as given in PubChem BioAssay AID504761 (Drosophila RNAi Screening Center, 2011).
The deposit covers about 22,000 reagents; shown is a random part of those with a known target gene and a result. Over the whole deposit, 116 (0.52%) were called active. 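Calls depend on retest data that are not deposited; infection was ranked per plate without normalising between plates; the unit of the infection score is not given.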 The raw values are shown without normalisation. A plus sign joins genes that one reagent is predicted to hit. Not given: the amount of reagent, the time to read-out.

- Assay: 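Insect host genes that dengue virus relies on to spread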 (primary screen)
- System: D.Mel-2 cells from Drosophila
- Reagent: long dsRNA against Drosophila genes
- Challenge: infection with dengue virus type 2; dose and infection time not stated
- Read-out: 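Cells stained for dengue envelope protein and imaged; percent of infected cells per well on duplicate plates, ranked by infection, with stained nuclei counted for cell number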
- Scale: infection score: higher = more virus-infected cells; cell count: higher = more cells in the well
- Active means: 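Low infection ranks in the two replicates (chance level up to 0.065) followed by a retest with a 1.5-fold or larger significant decrease, p below 0.05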
- Meaning of the calls: active = confirmed: knock-down lowers infection; inactive = not picked or not confirmed

Against CG31191 [DRSC15214] the deposit lists infection score, replicate 1 = 4.48; infection score, replicate 2 = 3.05; cell count, replicate 1 = 6648; cell count, replicate 2 = 6621; inactive.
For CG13921 [DRSC08390], the entry reads infection score, replicate 1 = 1.48; infection score, replicate 2 = 2.66; cell count, replicate 1 = 6270; cell count, replicate 2 = 7282; inactive.
Knock-down of CG13921 [DRSC25529] resulted in: infection score, replicate 1 = 3.75; infection score, replicate 2 = 4.41; cell count, replicate 1 = 6483; cell count, replicate 2 = 6321; inactive.
Knock-down of Psa [DRSC08152] gave: infection score, replicate 1 = 6.62; infection score, replicate 2 = 2.95; cell count, replicate 1 = 1903; cell count, replicate 2 = 983; inactive.
After knock-down of Tsp [DRSC02144], the record shows infection score, replicate 1 = 1.98; infection score, replicate 2 = 9.43; cell count, replicate 1 = 6016; cell count, replicate 2 = 2610; inactive.
Against Tsp [DRSC02145], the values are infection score, replicate 1 = 2.01; infection score, replicate 2 = 5.22; cell count, replicate 1 = 6730; cell count, replicate 2 = 6375; inactive.
Tango5 [DRSC18023] gave infection score, replicate 1 = 3.28; infection score, replicate 2 = 2.33; cell count, replicate 1 = 6898; cell count, replicate 2 = 6785; inactive.
After knock-down of Tango5 [DRSC25500], the screen gave infection score, replicate 1 = 13.8; infection score, replicate 2 = 13.1; cell count, replicate 1 = 4491; cell count, replicate 2 = 5911; inactive.
Kap3 [DRSC19426] showed infection score, replicate 1 = 9.41; infection score, replicate 2 = 0.67; cell count, replicate 1 = 6258; cell count, replicate 2 = 6278; inactive.
Silencing of Kap3 [DRSC25680] resulted in: infection score, replicate 1 = 0.92; infection score, replicate 2 = 3.04; cell count, replicate 1 = 5750; cell count, replicate 2 = 6021; inactive.
With knock-down of wdp [DRSC04367], the screen gave infection score, replicate 1 = 14.2; infection score, replicate 2 = 34.8; cell count, replicate 1 = 6105; cell count, replicate 2 = 5787; inactive.
After knock-down of wdp [DRSC28581], the screen gave cell count, replicate 1 = 254; cell count, replicate 2 = 279; inactive.
sli [DRSC07684] scored infection score, replicate 1 = 9.94; infection score, replicate 2 = 15.6; cell count, replicate 1 = 6536; cell count, replicate 2 = 5775; inactive.
Knock-down of sli [DRSC29578] gave: infection score, replicate 1 = 2.28; infection score, replicate 2 = 3.7; cell count, replicate 1 = 570; cell count, replicate 2 = 1028; inactive.
After knock-down of gw [DRSC17135], the record shows infection score, replicate 1 = 1.81; infection score, replicate 2 = 4.01; cell count, replicate 1 = 5589; cell count, replicate 2 = 6158; inactive.
After knock-down of gw [DRSC17160], the record shows infection score, replicate 1 = 0.65; infection score, replicate 2 = 1.68; cell count, replicate 1 = 4781; cell count, replicate 2 = 4118; inactive.
Silencing of gw [DRSC23497] came out at: infection score, replicate 1 = 3.73; infection score, replicate 2 = 0.93; cell count, replicate 1 = 4855; cell count, replicate 2 = 4941; inactive.
For Gale [DRSC08234], the entry reads infection score, replicate 1 = 6.11; infection score, replicate 2 = 8.63; cell count, replicate 1 = 6335; cell count, replicate 2 = 6291; inactive.

Only “cell count, replicate 1” (2 entries from above):
Kap3 [DRSC25680] = 5750
wdp [DRSC04367] = 6105

Next results follow:
Knock-down of CG2962 [DRSC18247] gave: infection score, replicate 1 = 23.9; infection score, replicate 2 = 6.5; cell count, replicate 1 = 3105; cell count, replicate 2 = 6783; inactive.
Silencing of CG2962 [DRSC27023] came out at: infection score, replicate 1 = 2.23; infection score, replicate 2 = 6.75; cell count, replicate 1 = 6310; cell count, replicate 2 = 6252; inactive.
Silencing of Zip99C [DRSC16320] resulted in: infection score, replicate 1 = 8.68; infection score, replicate 2 = 7.09; cell count, replicate 1 = 1071; cell count, replicate 2 = 6938; inactive.
Depletion of CG4456 + Hsp22 [DRSC11187] came out at: infection score, replicate 1 = 4.97; infection score, replicate 2 = 2.1; cell count, replicate 1 = 6114; cell count, replicate 2 = 6246; inactive.
With knock-down of CG4456 + Hsp22 [DRSC11192], the record shows infection score, replicate 1 = 20.4; infection score, replicate 2 = 12.6; cell count, replicate 1 = 5367; cell count, replicate 2 = 3139; inactive.
Against CG32582 (retired record) [DRSC19114], the entry reads infection score, replicate 1 = 3.96; infection score, replicate 2 = 12.9; cell count, replicate 1 = 6314; cell count, replicate 2 = 5723; inactive.
Knock-down of Rok [DRSC20277] resulted in: infection score, replicate 1 = 19.9; infection score, replicate 2 = 3.89; cell count, replicate 1 = 6646; cell count, replicate 2 = 6624; inactive.
After knock-down of Rok [DRSC23348], the screen gave infection score, replicate 1 = 2.28; infection score, replicate 2 = 15.7; cell count, replicate 1 = 7491; cell count, replicate 2 = 6246; inactive.
Against MFS1 [DRSC04115], the values are infection score, replicate 1 = 9.92; infection score, replicate 2 = 14.9; cell count, replicate 1 = 6744; cell count, replicate 2 = 6724; inactive.
MFS1 [DRSC27926] showed infection score, replicate 2 = 19.7; cell count, replicate 1 = 465; cell count, replicate 2 = 6356; inactive.
